In patent publication US20040229298A1:
“And” between values parts separate entries of the source, which are not always exact repeats. Equal entries are not always repeated.

B1: GST-Shank 1 PDZ domain 1 fusion protein (protein)
chain: MSPILGYWKIKGLVQPTRLLLEYLEEKYEEHLYERDEGDKWRNKKFELGLEFPNLPYYIDGDVKLTQSMAIIRYIADKHNMLGGCPKERAEISMLEGAVLDIRYGVSRIAYSKDFETLKVDFLSKLPEMLKMFEDRLCHKTYLNGDHVTHPDFMLYDALDVVLYMDPMCLDAFPKLVCFKKRIEAIPQIDKYLKSSKYIAWPLQGWQATFGGGDHPPKSDLIEGREEKTVVLQKKDNEGFGFVLRGAKADTPIEEFTPTPAFPALQYLESVDEGGVAWQAGLRTGDFLIEVNNENVVKVGHRQVVNMIRQGGNHLVLKVVTVTRNLDPDDTARKKA
B2: GST-MUPP1 PDZ domain 7 fusion protein (protein)
chain: MSPILGYWKIKGLVQPTRLLLEYLEEKYEEHLYERDEGDKWRNKKFELGLEFPNLPYYIDGDVKLTQSMAIIRYIADKHNMLGGCPKERAEISMLEGAVLDIRYGVSRIAYSKDFETLKVDFLSKLPEMLKMFEDRLCHKTYLNGDHVTHPDFMLYDALDVVLYMDPMCLDAFPKLVCFKKRIEAIPQIDKYLKSSKYIAWPLQGWQATFGGGDHPPKSDLIEGRRVELWREPSKSLGISIVGGRGMGSRLSNGEVMRGIFIKHVLEDSPAGKNGTLKPGDRIVEVDGMDLRDASHEQAVEAIRKAGNPVVFMVQSII
B3: GST-KIAA0973 #148.5 PDZ domain 1 fusion protein (protein)
chain: MSPILGYWKIKGLVQPTRLLLEYLEEKYEEHLYERDEGDKWRNKKFELGLEFPNLPYYIDGDVKLTQSMAIIRYIADKHNMLGGCPKERAEISMLEGAVLDIRYGVSRIAYSKDFETLKVDFLSKLPEMLKMFEDRLCHKTYLNGDHVTHPDFMLYDALDVVLYMDPMCLDAFPKLVCFKKRIEAIPQIDKYLKSSKYIAWPLQGWQATFGGGDHPPKSDLIEGRGLRSPITIQRSGKKYGFTLRAIRVYMGDTDVYSVHHIVWHVEEGGPAQEAGLCAGDLITHVNGEPVHGMVHPEVVELILKSGNKVAVTTTPFE
B4: GST-EBP50 #287.1 PDZ domain 2 fusion protein (protein)
chain: MSPILGYWKIKGLVQPTRLLLEYLEEKYEEHLYERDEGDKWRNKKFELGLEFPNLPYYIDGDVKLTQSMAIIRYIADKHNMLGGCPKERAEISMLEGAVLDIRYGVSRIAYSKDFETLKVDFLSKLPEMLKMFEDRLCHKTYLNGDHVTHPDFMLYDALDVVLYMDPMCLDAFPKLVCFKKRIEAIPQIDKYLKSSKYIAWPLQGWQATFGGGDHPPKSDLIEGRLCTMKKGPSGYGFNLHSDKSKPGQFIRSVDPDSPAEASGLRAQDRIVEVNGVCMEGKQHGDVVSAIRAGGDETKLLVVDRE
B5: GST-SITAC-18 PDZ domain 2 fusion protein (protein)
chain: MSPILGYWKIKGLVQPTRLLLEYLEEKYEEHLYERDEGDKWRNKKFELGLEFPNLPYYIDGDVKLTQSMAIIRYIADKHNMLGGCPKERAEISMLEGAVLDIRYGVSRIAYSKDFETLKVDFLSKLPEMLKMFEDRLCHKTYLNGDHVTHPDFMLYDALDVVLYMDPMCLDAFPKLVCFKKRIEAIPQIDKYLKSSKYIAWPLQGWQATFGGGDHPPKSDLIEGRTVTMHKDSMGHVGFVIKKGKIVSLVKGSSAARNGLLTNHYVCEVDGQNVIGLKDKKIMEILATAGNVVTLTIIPSV
B6: GST-NOS1 PDZ domain 1 fusion protein (protein)
chain: MSPILGYWKIKGLVQPTRLLLEYLEEKYEEHLYERDEGDKWRNKKFELGLEFPNLPYYIDGDVKLTQSMAIIRYIADKHNMLGGCPKERAEISMLEGAVLDIRYGVSRIAYSKDFETLKVDFLSKLPEMLKMFEDRLCHKTYLNGDHVTHPDFMLYDALDVVLYMDPMCLDAFPKLVCFKKRIEAIPQIDKYLKSSKYIAWPLQGWQATFGGGDHPPKSDLIEGRIQPNVISVRLFKRKVGGLGFLVKERVSKPPVIISDLIRGGAAEQSGLIQAGDIILAVNGRPLVDLSYDSALEVLRGIASETHVVLILRGP
B7: GST-TAX IP 2 PDZ domain 1 fusion protein (protein)
chain: MSPILGYWKIKGLVQPTRLLLEYLEEKYEEHLYERDEGDKWRNKKFELGLEFPNLPYYIDGDVKLTQSMAIIRYIADKHNMLGGCPKERAEISMLEGAVLDIRYGVSRIAYSKDFETLKVDFLSKLPEMLKMFEDRLCHKTYLNGDHVTHPDFMLYDALDVVLYMDPMCLDAFPKLVCFKKRIEAIPQIDKYLKSSKYIAWPLQGWQATFGGGDHPPKSDLIEGRRKEVEVFKSEDALGLTITDNGAGYAFIKRIKEGSVIDHIHLISVGDMIEAINGQSLLGCRHYEVARLLKELPRGRTFTLKLTEPRK
B8: GST-KIAA0147 PDZ domain 4 fusion protein (protein)
chain: MSPILGYWKIKGLVQPTRLLLEYLEEKYEEHLYERDEGDKWRNKKFELGLEFPNLPYYIDGDVKLTQSMAIIRYIADKHNMLGGCPKERAEISMLEGAVLDIRYGVSRIAYSKDFETLKVDFLSKLPEMLKMFEDRLCHKTYLNGDHVTHPDFMLYDALDVVLYMDPMCLDAFPKLVCFKKRIEAIPQIDKYLKSSKYIAWPLQGWQATFGGGDHPPKSDLIEGRELCIQKAPGERLGISIRGGARGHAGNPRDPTDEGIFISKVSPTGAAGRDGRLRVGLRLLEVNQQSLLGLTHGEAVQLLRSVGDTLTVLVCDGFEA
B9: GST-MAGI 1 PDZ domain 4 fusion protein (protein)
chain: MSPILGYWKIKGLVQPTRLLLEYLEEKYEEHLYERDEGDKWRNKKFELGLEFPNLPYYIDGDVKLTQSMAIIRYIADKHNMLGGCPKERAEISMLEGAVLDIRYGVSRIAYSKDFETLKVDFLSKLPEMLKMFEDRLCHKTYLNGDHVTHPDFMLYDALDVVLYMDPMCLDAFPKLVCFKKRIEAIPQIDKYLKSSKYIAWPLQGWQATFGGGDHPPKSDLIEGRPDYQEQDIFLWRKETGFGFRILGGNEPGEPIYIGHIVPLGAADTDGRLRSGDELICVDGTPVIGKSHQLVVQLMQQAAKQGHVNLTVRRKVVFAVPKTENSS
B10: GST-SSTRIP PDZ domain 1 fusion protein (protein)
chain: MSPILGYWKIKGLVQPTRLLLEYLEEKYEEHLYERDEGDKWRNKKFELGLEFPNLPYYIDGDVKLTQSMAIIRYIADKHNMLGGCPKERAEISMLEGAVLDIRYGVSRIAYSKDFETLKVDFLSKLPEMLKMFEDRLCHKTYLNGDHVTHPDFMLYDALDVVLYMDPMCLDAFPKLVCFKKRIEAIPQIDKYLKSSKYIAWPLQGWQATFGGGDHPPKSDLIEGRLKEKTVLLQKKDSEGFGFVLRGAKAQTPIEEFTPTPAFPALQYLESVDEGGVAWRAGLRMGDFLIEVNGQNVVKVGHRQVVNMIRQGGNTLMVKVVMVTRHPDMDEAVQ
B11: GST-KIAA1284 PDZ domain 1 fusion protein (protein)
chain: MSPILGYWKIKGLVQPTRLLLEYLEEKYEEHLYERDEGDKWRNKKFELGLEFPNLPYYIDGDVKLTQSMAIIRYIADKHNMLGGCPKERAEISMLEGAVLDIRYGVSRIAYSKDFETLKVDFLSKLPEMLKMFEDRLCHKTYLNGDHVTHPDFMLYDALDVVLYMDPMCLDAFPKLVCFKKRIEAIPQIDKYLKSSKYIAWPLQGWQATFGGGDHPPKSDLIEGRKDVNVYVNPKKLTVIKAKEQLKLLEVLVGIIHQTKWSWRRTGKQGDGERLVVHGLLPGGSAMKSGQVLIGDVLVAVNDVDVTTENIERVLSCIPGPMQVKLTFENAYDVKRET
B12: GST-PDZ-73 PDZ domain 2 fusion protein (protein)
chain: MSPILGYWKIKGLVQPTRLLLEYLEEKYEEHLYERDEGDKWRNKKFELGLEFPNLPYYIDGDVKLTQSMAIIRYIADKHNMLGGCPKERAEISMLEGAVLDIRYGVSRIAYSKDFETLKVDFLSKLPEMLKMFEDRLCHKTYLNGDHVTHPDFMLYDALDVVLYMDPMCLDAFPKLVCFKKRIEAIPQIDKYLKSSKYIAWPLQGWQATFGGGDHPPKSDLIEGRKVFISLVGSRGLGCSISSGPIQKPGIFISHVKPGSLSAEVGLEIGDQIVEVNGVDFSNLDHKEAVNVLKSSRSLTISIVAAAG
B13: GST-novel PDZ gene PDZ domain 1 fusion protein (protein)
chain: MSPILGYWKIKGLVQPTRLLLEYLEEKYEEHLYERDEGDKWRNKKFELGLEFPNLPYYIDGDVKLTQSMAIIRYIADKHNMLGGCPKERAEISMLEGAVLDIRYGVSRIAYSKDFETLKVDFLSKLPEMLKMFEDRLCHKTYLNGDHVTHPDFMLYDALDVVLYMDPMCLDAFPKLVCFKKRIEAIPQIDKYLKSSKYIAWPLQGWQATFGGGDHPPKSDLIEGRSVRVEKSPAGRLGFSVRGGSEHGLGIFVSKVEEGSSAERAGLCVGDKITEVNGLSLESTTMGSAVKVLTSSSRLHMMVRRMGR
B14: GST-KIAA1526 #126.1 PDZ domain 2 fusion protein (protein)
chain: MSPILGYWKIKGLVQPTRLLLEYLEEKYEEHLYERDEGDKWRNKKFELGLEFPNLPYYIDGDVKLTQSMAIIRYIADKHNMLGGCPKERAEISMLEGAVLDIRYGVSRIAYSKDFETLKVDFLSKLPEMLKMFEDRLCHKTYLNGDHVTHPDFMLYDALDVVLYMDPMCLDAFPKLVCFKKRIEAIPQIDKYLKSSKYIAWPLQGWQATFGGGDHPPKSDLIEGRKVNLVLGDGRSLGLTIRGGAEYGLGIYITGVDPGSEAEGSGLKVGDQILEVNWRSFLNILHDEAVRLLKSSRHLILTVKDVGR

These binders were tested against T1, HPV16 E6 PDZ ligand peptide (biotinylated C-terminal peptide of the E6 protein of HPV 16) (human papillomavirus 16) (assay: G assay ELISA, signal over GST-only well).

Row | Binder | OD S/N
1 | B1 | 2.53
2 | B2 | 1.61
3 | B3 | 2.71
4 | B4 | 2.57
5 | B5 | 2.46
6 | B6 | 2.88
7 | B7 | 2.37 and 2.48
8 | B8 | 2.17
9 | B9 | 1.58
10 | B10 | 3.28
11 | B11 | 2.72

The binders below were run against HPV16 E6 PDZ ligand peptide (biotinylated C-terminal peptide of the E6 protein of HPV 16) (human papillomavirus 16) (assay: G assay ELISA, immobilised GST-PDZ, 10 uM biotinylated peptide).

Row | Binder | Ave OD
12 | B12 | 0.561 A450 nm
13 | B13 | 0.545 A450 nm
14 | B14 | 0.463 A450 nm

What follows are binders tested against T1, HPV16 E6 PDZ ligand peptide … in the same assay as above.

Row | Binder | Ave OD
15 | B1 | 0.466 A450 nm
16 | B2 | 0.498 A450 nm
17 | B3 | 0.498 A450 nm
18 | B4 | 0.499 A450 nm
19 | B5 | 0.484 A450 nm
20 | B6 | 0.477 A450 nm
21 | B7 | 0.508 A450 nm and 0.478 A450 nm
22 | B8 | 0.464 A450 nm
23 | B9 | 0.496 A450 nm
24 | B10 | 0.467 A450 nm
25 | B11 | 0.473 A450 nm

Each binder was assayed against HPV16 E6 PDZ ligand peptide (biotinylated C-terminal peptide of the E6 protein of HPV 16) (human papillomavirus 16) (assay: G assay ELISA, signal over GST-only well).

Row | Binder | OD S/N
26 | B12 | 1.95
27 | B13 | 1.89
28 | B14 | 1.87
